The source of these data is ChEMBL document CHEMBL1149138 (J Med Chem, 2004).

The chains behind the UniProt entries cited, without tags or fusion partners.
UniProt P03468, whole entry, looked up: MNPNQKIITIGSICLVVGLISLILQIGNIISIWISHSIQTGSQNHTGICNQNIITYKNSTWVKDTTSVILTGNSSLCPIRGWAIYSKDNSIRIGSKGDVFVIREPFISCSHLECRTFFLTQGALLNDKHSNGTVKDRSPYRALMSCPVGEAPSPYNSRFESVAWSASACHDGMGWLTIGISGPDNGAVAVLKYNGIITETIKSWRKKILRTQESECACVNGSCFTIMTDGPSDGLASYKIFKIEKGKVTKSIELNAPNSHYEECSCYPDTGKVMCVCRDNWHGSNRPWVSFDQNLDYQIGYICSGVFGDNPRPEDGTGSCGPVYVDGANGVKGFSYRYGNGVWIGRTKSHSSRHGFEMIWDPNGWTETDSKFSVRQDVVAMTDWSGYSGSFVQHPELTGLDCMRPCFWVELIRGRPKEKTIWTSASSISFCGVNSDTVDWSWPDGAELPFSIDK

In the experiment the target is Neuraminidase (Influenza A virus (A/Puerto Rico/8/1934(H1N1)), UniProt P03468). As to the kind of experiment: In vitro inhibitory activity of compound against influenza neuraminidase A.
`CC(=O)NC(C(=O)N1CCCCC1)[C@H]1CC(C(=O)O)C[C@@H]1N=C(N)N` (stereo partly drawn): the IC50 (in general, the concentration needed to halve the response being measured) was found to be 150 nM. With `CCCCC(CC)NC(=O)C(NC(C)=O)[C@H]1CC(C(=O)O)C[C@@H]1N=C(N)N` (stereo partly drawn) the figure was 1800 nM; with `CCN(CCO)C(=O)C(NC(C)=O)[C@H]1CC(C(=O)O)C[C@@H]1N=C(N)N` (stereo partly drawn), 720 nM. `CC(=O)NC(C(=O)N1CC(C)CC(C)C1)[C@H]1CC(C(=O)O)C[C@@H]1N=C(N)N` (stereo partly drawn) returned a concentration for half-maximal inhibition (IC50) of 3500 nM. In the case of `CC(=O)NC(C(=O)NCCc1ccccc1)[C@H]1CC(C(=O)O)C[C@@H]1N=C(N)N` (stereo partly drawn), the IC50 was found to be 6400 nM. For `CCN(CC)C(=O)C(NC(C)=O)[C@H]1CC(C(=O)O)C[C@@H]1N=C(N)N` (stereo partly drawn) the value was 15 nM; for `CCC(COC)NC(=O)C(NC(C)=O)[C@H]1CC(C(=O)O)C[C@@H]1N=C(N)N` (stereo partly drawn), 2200 nM. For the compound `CCC(CC)NC(=O)C(NC(C)=O)[C@H]1CC(C(=O)O)C[C@@H]1N=C(N)N` (stereo partly drawn), inhibition was half-maximal at 80 nM (IC50). With `C=CCN(C)C(=O)C(NC(C)=O)[C@H]1CC(C(=O)O)C[C@@H]1N=C(N)N` (stereo partly drawn) the figure was 650 nM; with `CC(=O)NC(C(=O)N1CCCCCC1)[C@H]1CC(C(=O)O)C[C@@H]1N=C(N)N` (stereo partly drawn), 990 nM. For `CC(=O)NC(C(=O)N1CCC(C)CC1)[C@H]1CC(C(=O)O)C[C@@H]1N=C(N)N` (stereo partly drawn) the value was 8200 nM; for `CCCC(C)NC(=O)C(NC(C)=O)[C@H]1CC(C(=O)O)C[C@@H]1N=C(N)N` (stereo partly drawn), 3200 nM. `CCCCCCN(C)C(=O)C(NC(C)=O)[C@H]1CC(C(=O)O)C[C@@H]1N=C(N)N` (stereo partly drawn) had a 50% inhibitory concentration (IC50) of 12400 nM. For `CCNC(=O)C(NC(C)=O)[C@H]1CC(C(=O)O)C[C@@H]1N=C(N)N` (stereo partly drawn) the value was 330 nM; for `CCCCNC(=O)C(NC(C)=O)[C@H]1CC(C(=O)O)C[C@@H]1N=C(N)N` (stereo partly drawn), 9900 nM. In turn, `CCCN(CC)C(=O)C(NC(C)=O)[C@H]1CC(C(=O)O)C[C@@H]1N=C(N)N` (stereo partly drawn) gave an IC50 of 130 nM.

For `CCCN(CC1CC1)C(=O)C(NC(C)=O)[C@H]1CC(C(=O)O)C[C@@H]1N=C(N)N` (stereo partly drawn), inhibition was half-maximal at 200 nM (IC50).

As for `CC(=O)NC(C(=O)N1CCC1)[C@H]1CC(C(=O)O)C[C@@H]1N=C(N)N` (stereo partly drawn), the IC50 was 920 nM. Against the preceding compound, the IC50 is about 4.6-fold higher. With `CCCCC(C)NC(=O)C(NC(C)=O)[C@H]1CC(C(=O)O)C[C@@H]1N=C(N)N` (stereo partly drawn) the figure was 8700 nM.

On to `CCCN(C)C(=O)C(NC(C)=O)[C@H]1CC(C(=O)O)C[C@@H]1N=C(N)N` (stereo partly drawn), for which the IC50 came out at 940 nM. Compared with the last compound, the IC50 is about 9.3-fold lower. With `CCCN(CCC)C(=O)C(NC(C)=O)[C@H]1CC(C(=O)O)C[C@@H]1N=C(N)N` (stereo partly drawn) the figure was 60 nM; with `CC(=O)NC(C(=O)N1CCSCC1)[C@H]1CC(C(=O)O)C[C@@H]1N=C(N)N` (stereo partly drawn), 230 nM.

Regarding `CC(=O)NC(C(=O)N1CCCCC1C)[C@H]1CC(C(=O)O)C[C@@H]1N=C(N)N` (stereo partly drawn), the IC50 was found to be 240 nM. The IC50 values of the last two compounds are within 1.5-fold of each other.

`CCCCN(C)C(=O)C(NC(C)=O)[C@H]1CC(C(=O)O)C[C@@H]1N=C(N)N` (stereo partly drawn) yielded an IC50 of 2400 nM. `C=CCNC(=O)C(NC(C)=O)[C@H]1CC(C(=O)O)C[C@@H]1N=C(N)N` (stereo partly drawn) returned a half-inhibitory concentration (IC50) of 720 nM. Compound `CCN(Cc1ccccc1)C(=O)C(NC(C)=O)[C@H]1CC(C(=O)O)C[C@@H]1N=C(N)N` (stereo partly drawn) displayed an IC50 of 670 nM. Consider `CCC1CCCCN1C(=O)C(NC(C)=O)[C@H]1CC(C(=O)O)C[C@@H]1N=C(N)N` (stereo partly drawn), for which the midpoint of inhibition, the IC50, lay at 180 nM. Consider `CC(=O)NC(C(=O)N(C)CCc1ccccc1)[C@H]1CC(C(=O)O)C[C@@H]1N=C(N)N` (stereo partly drawn), for which the midpoint of inhibition, the IC50, lay at 8000 nM.

Regarding `CC(=O)NC(C(=O)NC(C)CC(C)C)[C@H]1CC(C(=O)O)C[C@@H]1N=C(N)N` (stereo partly drawn), the midpoint of inhibition, the IC50, lay at 8400 nM. Turning to `CCC(C)NC(=O)C(NC(C)=O)[C@H]1CC(C(=O)O)C[C@@H]1N=C(N)N` (stereo partly drawn), inhibition was half-maximal at 410 nM (IC50). Compared with the last compound, the IC50 is about 20-fold lower. Regarding `CCCCN(CC)C(=O)C(NC(C)=O)[C@H]1CC(C(=O)O)C[C@@H]1N=C(N)N` (stereo partly drawn), the IC50 stood at 430 nM. For `CC(=O)NC(C(=O)NC(C)C)[C@H]1CC(C(=O)O)C[C@@H]1N=C(N)N` (stereo partly drawn) the value was 1340 nM; for `COCC(C)NC(=O)C(NC(C)=O)[C@H]1CC(C(=O)O)C[C@@H]1N=C(N)N` (stereo partly drawn), 4400 nM.

In turn, `CCCC1CCCCN1C(=O)C(NC(C)=O)[C@H]1CC(C(=O)O)C[C@@H]1N=C(N)N` (stereo partly drawn) showed an IC50 of 150 nM. For `CC(=O)NC(C(=O)N1CCCC1)[C@H]1CC(C(=O)O)C[C@@H]1N=C(N)N` (stereo partly drawn) the value was 470 nM; for `CC(=O)NC(C(=O)N1CCOCC1)[C@H]1CC(C(=O)O)C[C@@H]1N=C(N)N` (stereo partly drawn), 40 nM. For `CC(=O)NC(C(=O)NC(C)CCc1ccccc1)[C@H]1CC(C(=O)O)C[C@@H]1N=C(N)N` (stereo partly drawn) the value was 230 nM; for `CC(=O)NC(C(=O)N(C)C(C)C)[C@H]1CC(C(=O)O)C[C@@H]1N=C(N)N` (stereo partly drawn), 3210 nM.
